The target of the assay is His-tagged eukaryotic Elongation Factor 2 (eEF2) expressed in S. cerevisiae. Kind of assay: cell-based or functional assay.

“Lyophilized Exotoxin A from Pseudomonas aeruginosa (Sigma Aldrich) (from UniProt P11439 26-638)” gave an ADP-ribosylation activity EC50 [µg/µl] (Example 3a, manufacturer's protocol) of 2.65 µg/µL and an ADP-ribosylation activity EC50 [µg/µl] (Example 3b, method of the invention) of 1.22 µg/µL.

Values taken from patent publication EP3370777B1.
